Laboratory results published in the CheMixHub viscosity set.

CCn1cc[n+](C)c1.O=S(=O)(F)[N-]S(=O)(=O)F
viscosity [mPa·s]
Settings | 298 K | 303 K | 308 K | 313 K | 318 K | 323 K
100 kPa | 19.2 | – | 14.4 | – | 11.1 | –
101.3 kPa | 19.2 | 16.7 | 14.6 | 12.9 | 11.4 | 10.2
